Measurements reported in paper PMC7038234, “Screening of Natural Extracts for Inhibitors against Japanese Encephalitis Virus Infection” (Antimicrobial Agents and Chemotherapy, 2020).
Counter-ions that a name gives are not always drawn.

Each molecule was assayed on JEV strain AT31. Details: not given.
Kaempferol-3-O-rutinoside was tested, and the “Inhibition (%)” value was -8.224%.

Same assay, conditions: Primary screening of 1034 compounds in the natural extracts library
With `COc1cc2c3c(c1OC)-c1ccccc1C[C@H]3[N+](C)(C)CC2` [N-Methylnuciferine] the “Inhibition (%)” value was 3.3459%.
With `COc1ccc(-c2oc3c(CC=C(C)C)c(O[C@@H]4O[C@H](CO)[C@@H](O)[C@H](O)[C@H]4O)cc(O)c3c(=O)c2O[C@@H]2O[C@@H](C)[C@H](O)[C@@H](O[C@@H]3O[C@H](CO)[C@@H](O)[C@H](O)[C@H]3O)[C@H]2O)cc1` [Epimedin A1] the “Inhibition (%)” value was -17.0377%.
For `COc1ccc(-c2cc(=O)c3c(O)c(OC)c(O)c(OC)c3o2)cc1` [Lysionotin], the “Inhibition (%)” value was -5.768%.
For `C[C@H]1CC[C@H]2[C@H](C)[C@@H]3CC[C@@H]4[C@@H](C[C@H]5[C@H]4C[C@@H](O)[C@H]4C[C@@H](O)CC[C@@]45C)[C@@H]3CN2C1` [Hupehenine], the “Inhibition (%)” value was 5.431%.
In the case of `C=CC(C)(C)c1cc(/C=C/C(=O)c2ccc(O)cc2)c(OC)cc1O` [Licochalcone A], the “Inhibition (%)” value is reported as 0.1303%.
`CC[C@@]1(O)C(=O)OCc2c1cc1n(c2=O)Cc2cc3c(OC)cccc3nc2-1` [Methoxycamptothecin, 9-] was tested, and the “Inhibition (%)” value was 26.0594%.
In the case of `C[C@@H](CO)[C@@H]1CC[C@@]2(CC[C@]3(C)[C@H](CC[C@@H]4[C@@]5(C)CC[C@H](O[C@@H]6O[C@H](CO)[C@@H](O)[C@H](O)[C@H]6O[C@@H]6O[C@H](CO)[C@@H](O)[C@H](O)[C@H]6O)[C@@](C)(CO[C@@H]6O[C@H](CO)[C@@H](O)[C@H](O)[C@H]6O)[C@@H]5CC[C@]43C)[C@H]2O)CO1` [Hosenkoside A], the “Inhibition (%)” value is reported as 9.413%.
With `COc1ccc(-c2cc(=O)c3c(OC)c(OC)c(OC)c(OC)c3o2)cc1` [tangeratin] the “Inhibition (%)” value was 13.3654%.
For `O=C(O)C1=CO[C@@H](O[C@@H]2O[C@H](CO)[C@@H](O)[C@H](O)[C@H]2O)[C@@H]2C(CO)=C[C@H](O)[C@H]12` [Desacetyl asperulosidic acid], the “Inhibition (%)” value was 33.2744%.
For `O=C1C=C(O)C(=O)c2ccccc21` [2-Hydroxy-1,4-naphoquinone], the “Inhibition (%)” value was 6.116%.
For `CCC(=O)C1=C(O)C(C)(C)C(O)=C(CC2=C(O)C(C)(C)C(O)=C(C(C)=O)C2=O)C1=O` [Albaspidin AP], the “Inhibition (%)” value was 7.6572%.
In the case of `COc1cc2c(=O)c(-c3ccc(O)cc3)coc2cc1O[C@@H]1O[C@H](CO)[C@@H](O)[C@H](O)[C@H]1O` [Glycitin], the “Inhibition (%)” value is reported as 8.88%.
`COc1cc2c(cc1O)CC[n+]1cc3c(OC)c(OC)ccc3cc1-2.[Cl-]` was tested, and the “Inhibition (%)” value was 14.9639%.
`C=C(C)[C@@H]1CC[C@@]2(C)CCC(=O)C(C)=C2C1` [α-Cyperone] was tested, and the “Inhibition (%)” value was 3.063%.
With BulleyaconitineA the “Inhibition (%)” value was 35.2049%.
For `C[N+](C)(C)CC(=O)O` [Betaine hydrochloride], the “Inhibition (%)” value was 51.0034%.
With `CC1=C(C(=O)O)C(C)(C)CC[C@H]1O[C@@H]1O[C@H](CO)[C@@H](O)[C@H](O)[C@H]1O` [rehmapicroside] the “Inhibition (%)” value was -4.503%.
With `COc1cc(-c2oc3cc(O)cc(O)c3c(=O)c2O[C@@H]2O[C@H](CO)[C@@H](O)[C@H](O)[C@H]2O[C@@H]2O[C@@H](C)[C@H](O)[C@@H](O)[C@H]2O)ccc1O` [Isorhamnetin-3-O-neohespeidoside] the “Inhibition (%)” value was 1.429%.
With `CCCCCCCC/C=C\CCCCCCCC(=O)O` [cis-9-Octadecenoic acid] the “Inhibition (%)” value was 10.1533%.
For `CC(=O)O[C@H]1C(=O)[C@@]2(C)[C@H]([C@H](OC(=O)c3ccccc3)[C@]3(O)C[C@H](OC(=O)[C@H](O)[C@@H](NC(=O)c4ccccc4)c4ccccc4)C(C)=C1C3(C)C)[C@]1(OC(C)=O)CO[C@@H]1C[C@@H]2O` [7-Epitaxol], the “Inhibition (%)” value was 38.1409%.
With `CC(=O)O[C@@]12CO[C@@H]1C[C@H](O)[C@@]1(C)C(=O)[C@H](O)C3=C(C)[C@@H](O)C[C@@](O)([C@@H](OC(=O)c4ccccc4)[C@H]21)C3(C)C` [10-Deacetyl Baccatin] the “Inhibition (%)” value was 77.214%.
With `COc1cc(CCC(=O)CC(=O)CCc2ccc(O)c(OC)c2)ccc1O` [Tetrahydrocucumin] the “Inhibition (%)” value was -6.898%.
For `COc1ccc(-c2oc3c(CC=C(C)C)c(O)cc(O)c3c(=O)c2O[C@@H]2O[C@@H](C)[C@H](O)[C@@H](O)[C@H]2O[C@@H]2O[C@@H](C)[C@H](O)[C@@H](O)[C@H]2O)cc1` [2"-O-rhamnosyl icariside II], the “Inhibition (%)” value was -28.5906%.
For `C[C@H]1O[C@@H](O[C@H]2CC[C@@]3(C)[C@@H](CC[C@]4(C)[C@@H]3C=CC3=C5CC(C)(C)CC[C@]5(CO)[C@@H](O)C[C@]34C)[C@]2(C)CO)[C@H](O)[C@@H](O[C@@H]2O[C@H](CO)[C@@H](O)[C@H](O)[C@H]2O)[C@H]1O` [Saikosaponin B1], the “Inhibition (%)” value was -4.468%.
For `COc1ccc(CCc2cc(OC)c(OC)c(OC)c2)cc1O` [Erianin], the “Inhibition (%)” value was 41.476%.
`COc1cc2c(cc1OC)[C@@H](Cc1ccc(O)c(Oc3cc4c(cc3OC)CCN(C)[C@@H]4Cc3ccc(O)cc3)c1)N(C)CC2` [Liensinine] was tested, and the “Inhibition (%)” value was 97.9975%.
With `O=C(O[C@H]1[C@H](Oc2c(-c3ccc(O)c(O)c3)oc3cc(O)cc(O)c3c2=O)O[C@H](CO)[C@H](O)[C@@H]1O)c1cc(O)c(O)c(O)c1` [2'-O-Galloylhyperin] the “Inhibition (%)” value was 18.9%.
`CN1C2CCC1CC(OC(=O)C(CO)c1ccccc1)C2.O=S(=O)(O)O` (stereo not shown) [Hyoscyamine sulfate hydrate] was tested, and the “Inhibition (%)” value was -16.3051%.
In the case of `CCCCCCCCCCCCCCCC(=O)NCc1ccccc1` [Hexadecanamide, N-benzyl-], the “Inhibition (%)” value is reported as 3.903%.
With `COc1ccc(-c2oc3cc(OC)c(OC)c(O)c3c(=O)c2OC)cc1O` [Vitexicarpin] the “Inhibition (%)” value was 34.179%.
In the case of `COc1cc(C(=O)OCCCCN=C(N)N)cc(OC)c1O.Cl` [Leonurine hydrochloride], the “Inhibition (%)” value is reported as 49.1267%.
`COc1cc(CO)ccc1O` was tested, and the “Inhibition (%)” value was -8.743%.
With (-)-Gallocatechin gallate the “Inhibition (%)” value was 94.9741%.
`O=C1CCc2ccccc2O1` [Hydrocoumarin] was tested, and the “Inhibition (%)” value was -4.613%.
In the case of `CCCC(C)C(=O)O` (stereo not shown) [2-Methylvaleric acid], the “Inhibition (%)” value is reported as 0.04244%.
For `CC1(C)CC[C@]2(C(=O)O)CC[C@]3(C)C(=CC[C@@H]4[C@@]5(C)CC[C@H](O)C(C)(C)[C@@H]5CC[C@]43C)[C@@H]2C1` [Oleanic acid], the “Inhibition (%)” value was 68.7465%.
`COc1c2c(cc3oc(C)cc(=O)c13)O[C@H](C(C)(C)O)C2` [5-O-methylvisamminol] was tested, and the “Inhibition (%)” value was -0.6273%.
For `O=c1c(O[C@@H]2O[C@H](CO)[C@@H](O)[C@H](O)[C@H]2O)c(-c2ccc(O)c(O)c2)oc2cc(O)cc(O)c12`, the “Inhibition (%)” value was 8.905%.
With `COc1cc(C[C@H](C)[C@H](C)Cc2ccc3c(c2)OCO3)ccc1O` [Anwuligan] the “Inhibition (%)” value was -89.2323%.
`COc1cccc2c1cc([N+](=O)[O-])c1c(C(=O)O)cc3c(c12)OCO3` [Aristolochic Acid A] was tested, and the “Inhibition (%)” value was 8.4053%.
`CC(C)(O[C@@H]1O[C@H](CO)[C@@H](O)[C@H](O)[C@H]1O)[C@@H]1CC[C@](O)(CO)[C@H]2CC(=O)[C@@](C)(O)[C@@H]2C1` [atractyloside A] was tested, and the “Inhibition (%)” value was 11.6079%.

Same assay, conditions: primary screening of 1034 compounds in the natural extracts library; red numbers = obvious cytotoxicity, blue numbers = insoluble in DMSO (colours not visible)
In the case of p-Hydroxy-cinnamic acid, the “Inhibition (%)” value is reported as -9.375%.
For Glycerite, the “Inhibition (%)” value was 39.0701%.
In the case of `COC1=C(C)C(=O)O/C1=C1\O[C@@H]2CCCN3[C@@H](CC[C@H]3[C@@H]3C[C@H](C)C(=O)O3)[C@H]2[C@@H]1C` [protostemonine], the “Inhibition (%)” value is reported as -19.6444%.
With `CC(C)=CCc1cc2c(cc1O)oc(=O)c1c3ccc(O)cc3oc21` [psoralidin] the “Inhibition (%)” value was 55.5877%.
